## Zika virus NS2B-NS3: effect of single substitutions on growth in cell culture

Chain scanned (Zika virus MR766; NS2B from position 2 to 131, then the start of NS3):
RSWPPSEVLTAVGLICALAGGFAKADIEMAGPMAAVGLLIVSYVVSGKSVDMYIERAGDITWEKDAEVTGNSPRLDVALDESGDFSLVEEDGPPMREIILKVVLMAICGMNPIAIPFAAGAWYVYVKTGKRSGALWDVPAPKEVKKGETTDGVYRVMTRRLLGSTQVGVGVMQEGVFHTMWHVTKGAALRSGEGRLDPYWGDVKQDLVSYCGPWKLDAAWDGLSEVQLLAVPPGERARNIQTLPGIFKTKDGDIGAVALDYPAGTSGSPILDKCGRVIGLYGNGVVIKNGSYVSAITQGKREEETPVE

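Mutant virus pools were grown in human Huh-7.5 cells. Deep sequencing gave the change in frequency of each mutant relative to wild type, averaged over three replicate libraries (two for positions 207-308).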

The number is log2 of the effect relative to wild type; negative values mean reduced growth, higher values better tolerance. Each entry names the wild-type residue, its position and the residue put in its place. Positions 1-103, 104-206 and 207-308 were made and measured as separate libraries. The authors count -1 or higher as tolerated. Position 1 is the last residue of NS2A. Six mutants with high scores were retested singly and none clearly outgrew wild type, so positive values are not proof of better growth. An asterisk is a stop codon; stop codons read about -7, near the floor of the assay.

substitution,effect (log2)
W3P,-6.99
P4G,-6.59
A23R,-5.47
A34Q,-4.79
G37D,-5.09
L38D,-5.04
V45M,-5.17
G47D,-5.84
S49F,-5.41
V50A,-2.87
V50F,-6.05
Y53*,-5.87
A57G,-3.13
T61R,-1.88
W62V,-7.02
L79H,-6.95
G83*,-2.47
S86Q,-2.68
E90L,-2.58
I99Q,-5.59
V102W,-5.75
N111V,-3.17
I113G,-3.64
A114S,-1.65
A118K,-5.39
A121N,-5.41
Y123L,-0.52
Y123W,-1.65
Y125Q,-5.94
R131V,-6.44
S132R,-7.52
K142D,-4.55
G147Q,-4.26
T158Q,-4.92
T158W,-4.83
L162K,-4.96
V167T,-2.69
G170M,-5.63
V176K,-5.03
T179N,-4.67
M180Y,-4.54
H182R,-6.29
V183D,-5.04
G186L,-6.54
L216N,-6.40
L216R,-8.08
D217N,-6.00
A219H,0.51
W220R,-6.95
L228K,-4.19
L229P,-3.04
A230H,-3.17
A230V,-0.42
G234Y,-3.77
K250T,-2.66
Y261I,-4.67
G264Y,-4.01
S266T,-4.83
G267A,-6.60
L271W,-4.12
K273N,-3.15
C274I,0.68
V277S,-5.97
L280C,-5.16
I287F,-3.55
I287K,-2.67
K300D,-5.14

Extract of 7 entries:

substitution	effect (log2)
P4G	-6.59
G234Y	-3.77
S132R	-7.52
G47D	-5.84
W62V	-7.02
D217N	-6.00
V183D	-5.04

Data from the supplement of Ni et al. 2025, doi:10.1038/s41467-025-63602-z.